Experimental data as given in PubChem BioAssay AID588499 (NMMLSC, 2011).
The list shows a part of the results, in another mix than the full data. Activity calls are given as the source filed them. No stated cut-off is given here; in the data, active means inhibition above about 30%; inconclusive means no clear call, values can overlap the other calls; inactive means below that.

These compounds were tested on Botulinum neurotoxin type A light chain protease (Clostridium botulinum A str. ATCC 3502) (assay: BoNT/A light chain protease inhibitors, primary screen, biochemical, flow cytometry, MLPCN library (AID 588499; further: plate controls were buffer without enzyme for full effect and enzyme alone for no effect)). Settings: multiplex microsphere protease substrate cleavage, at 10 µM, active compounds read high.
In the case of CCCCn1nnnc1C(c1ccc(OC)cc1)N1CCC(n2c(=O)[nH]c3ccccc32)CC1 (configuration not stated), the inhibition is reported as inactive: -0.6%.
With CCOC(=O)N1CCC(Nc2ccc(OC)cc2)CC1 the inhibition was inactive: -0.4%.
In the case of COc1ccc(Cl)cc1C(=O)NCC1(N2CCOCC2)CCCCC1, the inhibition is reported as inactive: -0.5%.
In the case of O=C(NCC1(N2CCCCC2)CCCCC1)c1ccc(Cl)s1, the inhibition is reported as inactive: -0.8%.
With N#CC1(Nc2ccccc2)CCN(Cc2ccccc2)CC1 the inhibition was inactive: 1.2%.
In the case of O=C(OC1CN2CCC1CC2)C1c2ccccc2Oc2ccccc21 (configuration not stated), the inhibition is reported as inactive: -0.5%.
With O=c1[nH]c2ccccc2n1C1CCN(C(c2cc3ccccc3o2)c2nnnn2C2CCCCC2)CC1 (configuration not stated) the inhibition was inactive: -0.1%.
With O=C(NCC1(N2CCOCC2)CCCCC1)c1cc2ccccc2o1 the inhibition was inactive: 0%.
With Cc1cc(C)cc(N(C(=O)c2ccccc2)C2CCN(C(=O)OC(C)(C)C)CC2)c1 the inhibition was inactive: -1.4%.
O=C(NCC1(N2CCCCC2)CCCCC1)c1ccc(Cl)nc1 was tested, and the inhibition was inactive: -0.1%.
For O=c1[nH]c2ccccc2n1C1CCN(C(c2ccccc2OC(F)(F)F)c2nnnn2C2CCCCC2)CC1 (configuration not stated), the inhibition was inactive: 0.3%.
In the case of Cc1cccc(NC2(C#N)CCN(Cc3ccccc3)CC2)c1, the inhibition is reported as inactive: 0.2%.
For CSc1ccccc1C(=O)NCC1(N2CCCCC2)CCCCC1, the inhibition was inactive: -3.2%.
In the case of O=C(NCC1(N2CCCCC2)CCCCC1)c1cccs1, the inhibition is reported as inactive: -0.8%.
CCCCn1nnnc1C(CC)N1CCC(n2c(=O)[nH]c3ccccc32)CC1 (configuration not stated) was tested, and the inhibition was inactive: 0.1%.
For CCCCn1nnnc1C(c1cccs1)N1CCC(n2c(=O)[nH]c3ccccc32)CC1 (configuration not stated), the inhibition was inactive: 0.2%.
O=C(NCC1(N2CCCCC2)CCCCC1)c1ccc(=O)[nH]c1 was tested, and the inhibition was inactive: -0.1%.
With CC(C)(C)OC(=O)N1CCC(N(C(=O)c2ccccc2)c2ccc(F)cc2)CC1 the inhibition was inactive: -4.2%.
For COc1ccc(C(=O)NCC2(N3CCCCC3)CCCCC2)c(OC)c1OC, the inhibition was inactive: 0.9%.
With CCC(c1nnnn1C1CCCC1)N1CCC(n2c(=O)[nH]c3ccccc32)CC1 (configuration not stated) the inhibition was inactive: 0.4%.
In the case of COc1ccc(C(=O)NCC2(N3CCCCC3)CCCCC2)cc1, the inhibition is reported as inactive: -5.1%.
O=c1[nH]c2ccccc2n1C1CCN(C(c2cccc3ccccc23)c2nnnn2C2CCCC2)CC1 (configuration not stated) was tested, and the inhibition was inactive: 1.2%.
In the case of CCOC(=O)N1CCC(Nc2cccc(C)c2)CC1, the inhibition is reported as inactive: -1.9%.
COc1cc(C(=O)NCC2(N(C)C)CCCCC2)ccc1OC(F)F was tested, and the inhibition was inactive: -0.7%.
With O=c1[nH]c2ccccc2n1C1CCN(C(c2ccccc2)c2nnnn2C2CCCCC2)CC1 (configuration not stated) the inhibition was inactive: 0%.
For COc1ccc(NC2CCN(CCc3ccccc3)CC2)c(OC)c1, the inhibition was inactive: -0.9%.
With CCOC(=O)N1CCC(Nc2ccc(F)cc2)CC1 the inhibition was inactive: 4.8%.
For CCCCn1nnnc1C(c1cc2ccccc2o1)N1CCC(n2c(=O)[nH]c3ccccc32)CC1 (configuration not stated), the inhibition was inactive: -0.3%.
O=P1(N(CCCl)CCCl)SCCCS1 was tested, and the inhibition was inactive: 0.1%.
With CCCCOc1ccc(C(=O)NCC2(N3CCOCC3)CCCCC2)cc1 the inhibition was inactive: -2.8%.
In the case of O=C(NCC1(N2CCCCC2)CCCCC1)c1ccc(F)cc1, the inhibition is reported as inactive: -0.1%.
For CCOc1ccc(C)cc1CN(CCCl)CCCl, the inhibition was inactive: 0.4%.
For O=C1CCN(Cc2ccccc2)CC1, the inhibition was inactive: 1.1%.
In the case of CC(C)(C)n1nnnc1C(c1ccccc1)N1CCC(n2c(=O)[nH]c3ccccc32)CC1 (configuration not stated), the inhibition is reported as inactive: 0.6%.
With CN1CCN(CCOC(=O)C(O)(c2ccccc2)c2ccccc2)CC1 the inhibition was inactive: 8.9%.
In the case of CC(C)c1ccc(C(=O)NCC2(N3CCOCC3)CCCCC2)cc1, the inhibition is reported as inactive: -2.3%.
With COc1ccc(NC2CCN(C(=O)OC(C)(C)C)CC2)cc1 the inhibition was inactive: -1.3%.
In the case of CCCCn1nnnc1C(c1cccc2ccccc12)N1CCC(n2c(=O)[nH]c3ccccc32)CC1 (configuration not stated), the inhibition is reported as inactive: -0.7%.
For COc1cc(C(=O)NCC2(N3CCCCC3)CCCCC2)ccc1OC(F)F, the inhibition was inactive: -2.3%.
For O=C(NCC1(N2CCOCC2)CCCCC1)c1cc(=O)[nH]c2ccccc12, the inhibition was inactive: -0.1%.
For O=C(NCC1(N2CCCCC2)CCCCC1)c1cccc(C(F)(F)F)c1, the inhibition was inactive: 3.8%.
With O=C(NCC1(N2CCCCC2)CCCCC1)c1cccc([N+](=O)[O-])c1 the inhibition was inactive: -0.5%.
CSc1ccc(C(=O)NCC2(N3CCOCC3)CCCCC2)cc1 was tested, and the inhibition was inactive: 2.2%.
O=c1[nH]c2ccccc2n1C1CCN(C(c2ccccc2OC(F)(F)F)c2nnnn2C2CCCC2)CC1 (configuration not stated) was tested, and the inhibition was inactive: -0.2%.
In the case of N#CC1(Nc2ccccc2)CCN(CCc2ccccc2)CC1, the inhibition is reported as inactive: 0.1%.
CCN1CCC(Nc2ccc(Cl)cc2)CC1 was tested, and the inhibition was inactive: -2.7%.
With O=C(NCC1(N2CCCCC2)CCCCC1)c1ccc(OC(F)F)cc1 the inhibition was inactive: 1%.
CC(C)(C)n1nnnc1C(c1ccccc1OC(F)(F)F)N1CCC(n2c(=O)[nH]c3ccccc32)CC1 (configuration not stated) was tested, and the inhibition was inactive: 0.2%.
With CCCOc1ccc(C(=O)NCC2(N(C)C)CCCCC2)cc1OC the inhibition was inactive: -2.8%.
With Cc1ccc(C(=O)NCC2(N(C)C)CCCCC2)o1 the inhibition was inactive: 0.3%.
In the case of COc1ccc(C(c2nnnn2C2CCCC2)N2CCC(n3c(=O)[nH]c4ccccc43)CC2)cc1 (configuration not stated), the inhibition is reported as inactive: 0.9%.
For CN1CCC(Nc2cccc(F)c2)CC1, the inhibition was inactive: 0.3%.
O=C(NCC1(N2CCCCC2)CCCCC1)c1cncc(Br)c1 was tested, and the inhibition was inactive: -0.4%.
For CCCCn1nnnc1C(c1ccnc2ccccc12)N1CCC(n2c(=O)[nH]c3ccccc32)CC1 (configuration not stated), the inhibition was inactive: -0.8%.
For CCC(c1nnnn1C(C)(C)C)N1CCC(n2c(=O)[nH]c3ccccc32)CC1 (configuration not stated), the inhibition was inactive: -0.6%.
In the case of O=C(NCC1(N2CCOCC2)CCCCC1)c1cc(F)c(F)cc1Cl, the inhibition is reported as inactive: -2.4%.
COc1cc(OC)c(C(=O)NCC2(N(C)C)CCCCC2)cc1OC was tested, and the inhibition was inactive: -3.2%.
With CN(C)c1cccc(C(=O)NCC2(N3CCCCC3)CCCCC2)c1 the inhibition was inactive: 0.2%.
For COc1ccc(CN(CCCl)CCCl)cc1Cl, the inhibition was inactive: 0.1%.
For CCCCn1nnnc1C(c1ccccc1OC(F)(F)F)N1CCC(n2c(=O)[nH]c3ccccc32)CC1 (configuration not stated), the inhibition was inactive: -0.2%.
CC(C)c1ccc(NC2CCN(C(=O)OC(C)(C)C)CC2)cc1 was tested, and the inhibition was inactive: -1.4%.
CCCCn1nnnc1C(c1cccc(OC)c1OC)N1CCC(n2c(=O)[nH]c3ccccc32)CC1 (configuration not stated) was tested, and the inhibition was inactive: -1%.
With O=c1[nH]c2ccccc2n1C1CCN(C(c2cccs2)c2nnnn2C2CCCC2)CC1 (configuration not stated) the inhibition was inactive: 0.2%.
For O=C(OC1CN2CCC1CC2)C1c2ccccc2C=Cc2ccccc21 (configuration not stated), the inhibition was inactive: 0.5%.
For N/C(=N\O)c1c(N)no[n+]1[O-], the inhibition was inactive: 0.3%.
In the case of COc1cccc(C(c2nnnn2C(C)(C)C)N2CCC(n3c(=O)[nH]c4ccccc43)CC2)c1OC (configuration not stated), the inhibition is reported as inactive: -1.3%.
For O=c1[nH]c2ccccc2n1C1CCN(C(c2ccnc3ccccc23)c2nnnn2C2CCCC2)CC1 (configuration not stated), the inhibition was inactive: 1.2%.
COc1ccc(C(=O)NCC2(N3CCOCC3)CCCCC2)cc1OC was tested, and the inhibition was inactive: -0.5%.
With O=c1[nH]c2ccccc2n1C1CCN(C(c2cccs2)c2nnnn2C2CCCCC2)CC1 (configuration not stated) the inhibition was inactive: -0.3%.
With O=C(NCC1(N2CCOCC2)CCCCC1)c1cc(Br)ccc1Cl the inhibition was inactive: 10%.
For COc1cc(C(=O)NCC2(N3CCOCC3)CCCCC2)cc(OC)c1C, the inhibition was inactive: 0%.
For CCCCn1nnnc1C(c1ccccc1)N1CCC(n2c(=O)[nH]c3ccccc32)CC1 (configuration not stated), the inhibition was inactive: -0.4%.
For CC(C)(C)n1nnnc1C(c1cccc2ccccc12)N1CCC(n2c(=O)[nH]c3ccccc32)CC1 (configuration not stated), the inhibition was inactive: 0.7%.
In the case of Cc1cc(N(CCCl)CCCl)ccc1C=O, the inhibition is reported as inactive: -0.2%.
For CCCN1CCC(Nc2cc(OC)cc(OC)c2)CC1, the inhibition was inactive: -1.1%.
With O=c1[nH]c2ccccc2n1C1CCN(C(c2ccccc2)c2nnnn2C2CCCC2)CC1 (configuration not stated) the inhibition was inactive: 0.2%.
With c1ccc(CN2CCC(Nc3ccccc3)CC2)cc1 the inhibition was inactive: -0.7%.
In the case of CN(C)C1(CNC(=O)c2cccc(C#N)c2)CCCCC1, the inhibition is reported as inactive: -1.5%.
In the case of CC(C)(C)OC(=O)N1CCC(N(C(=O)c2ccccc2)c2ccc(Cl)cc2)CC1, the inhibition is reported as inactive: -1%.
N#Cc1ccc(C(=O)NCC2(N3CCCCC3)CCCCC2)cc1 was tested, and the inhibition was inactive: -0.7%.
With CN(C)c1ccc(C(=O)NCC2(N3CCCCC3)CCCCC2)cc1 the inhibition was inactive: 0.1%.
Cn1c(=O)[nH]cc(N(CCCl)CCCl)c1=O was tested, and the inhibition was inactive: 0.4%.
With O=C(NCC1(N2CCCCC2)CCCCC1)c1ccco1 the inhibition was inactive: 0.3%.
For CCN1CCC(Nc2cccc(F)c2)CC1, the inhibition was inactive: 1.1%.
With COc1ccc(C(c2nnnn2C2CCCCC2)N2CCC(n3c(=O)[nH]c4ccccc43)CC2)cc1 (configuration not stated) the inhibition was inactive: 0.2%.
In the case of CC(C)(C)n1nnnc1C(c1ccnc2ccccc12)N1CCC(n2c(=O)[nH]c3ccccc32)CC1 (configuration not stated), the inhibition is reported as inactive: -0.1%.
For Cc1ccccc1NC1(C#N)CCN(Cc2ccccc2)CC1, the inhibition was inactive: -0.2%.
With Cc1ccc(NC2(C#N)CCN(Cc3ccccc3)CC2)cc1 the inhibition was inactive: -0.4%.
With Fc1ccccc1NC1CCN(Cc2ccccc2)CC1 the inhibition was inactive: 0.9%.
For Cc1ccc(C(=O)NCC2(N3CCCCC3)CCCCC2)o1, the inhibition was inactive: -2.1%.
COc1cc(OC)cc(C(=O)NCC2(N3CCCCC3)CCCCC2)c1 was tested, and the inhibition was inactive: 1%.
O=c1[nH]c2ccccc2n1C1CCN(C(c2ccnc3ccccc23)c2nnnn2C2CCCCC2)CC1 (configuration not stated) was tested, and the inhibition was inactive: 0%.
With CCC(c1nnnn1C1CCCCC1)N1CCC(n2c(=O)[nH]c3ccccc32)CC1 (configuration not stated) the inhibition was inactive: 0.4%.
COc1cccc(C(c2nnnn2C2CCCCC2)N2CCC(n3c(=O)[nH]c4ccccc43)CC2)c1OC (configuration not stated) was tested, and the inhibition was inactive: 0.5%.
For CC(=O)N(c1ccccc1)C1CCNCC1, the inhibition was inactive: -0.3%.
For CN1CCC(Nc2ccc(Cl)cc2)CC1, the inhibition was inactive: -3.6%.
CCC(CO)(C(=O)OC1CN2CCC1CC2)c1ccccc1 (configuration not stated) was tested, and the inhibition was inactive: -0.8%.
With COc1cc(OC)cc(C(=O)NCC2(N3CCOCC3)CCCCC2)c1 the inhibition was inactive: 0.2%.
In the case of COc1cccc(C(c2nnnn2C2CCCC2)N2CCC(n3c(=O)[nH]c4ccccc43)CC2)c1OC (configuration not stated), the inhibition is reported as inactive: -0.1%.
COc1cccc(C(=O)N(c2cc(C)cc(C)c2)C2CCN(C(=O)OC(C)(C)C)CC2)c1 was tested, and the inhibition was inactive: -2.8%.
In the case of O=c1[nH]c2ccccc2n1C1CCN(C(c2cc3ccccc3o2)c2nnnn2C2CCCC2)CC1 (configuration not stated), the inhibition is reported as inactive: -0.8%.
For CCCOc1ccc(C(=O)NCC2(N(C)C)CCCCC2)cc1, the inhibition was inactive: 0.1%.
In the case of O=C(O)C1(Nc2ccccc2)CCN(Cc2ccccc2)CC1, the inhibition is reported as inactive: -0.4%.
NN(c1ccccc1)C1CCN(CCc2ccccc2)CC1 was tested, and the inhibition was inactive: -0.1%.
For CC(C)(C)OC(=O)N1CCC(Nc2ccccc2)CC1, the inhibition was inactive: 1.1%.
CN1CCC(Nc2ccc(F)c(Cl)c2)CC1 was tested, and the inhibition was inactive: 0.9%.
In the case of CCOc1ncccc1C(=O)NCC1(N2CCOCC2)CCCCC1, the inhibition is reported as inactive: -1.8%.
